Tests used:
[1] = test system: C. glabrata YEM19 (over-expressing the CgCDR1 and CgCDR2 pumps); assay: checkerboard assay / broth microdilution, potentiation of fluconazole vs. C. glabrata; settings: Nakaseomyces glabratus, 48 h
[2] = test system: Candida albicans YEM15 (over-expressing the CDR1 and CDR2 pumps); assay: checkerboard assay / broth microdilution, potentiation of fluconazole vs. C. albicans; settings: 48 h

COc1ccc(N(C(=O)Nc2ccc(F)cc2)C(C)c2nc3ccccc3c(=O)n2N2CCN(C(=O)C3COCCN3)CC2)c(OC)c1 (racemic) [Compound 253]
MIC [1]: > 32 µg/mL | MIC [2]: > 32 µg/mL

COc1ccc(N(C(=O)Nc2ccc(F)cc2)C(C)c2nc3ccc(Cl)cc3c(=O)n2N2CCN(C(=O)[C@H]3NC(=O)O[C@@H]3C)CC2)c(OC)c1 (mixture of isomers) [Compound 255]
MIC [1]: > 32 µg/mL | MIC [2]: > 32 µg/mL

COc1ccc(N(C(=O)Nc2ccc(F)cc2)C(C)c2nc3cc(Cl)ccc3c(=O)n2N2CCN(C(=O)[C@H]3NC(=O)O[C@@H]3C)CC2)c(OC)c1 (mixture of isomers) [Compound 256]
MIC [1]: > 32 µg/mL | MIC [2]: > 32 µg/mL

COc1ccc(N(C(=O)Nc2ccc(F)cc2)C(C)c2nc3ccc(Cl)cc3c(=O)n2N2CCN(C(=O)[C@@H]3CCC(=O)N3)CC2)c(OC)c1 (mixture of isomers) [Compound 258]
MIC [1]: > 32 µg/mL | MIC [2]: > 32 µg/mL

COc1ccc(N(C(=O)Nc2ccc(F)cc2)C(C)c2nc3cc(Cl)ccc3c(=O)n2N2CCN(C(=O)[C@@H]3CCC(=O)N3)CC2)c(OC)c1 (mixture of isomers) [Compound 259]
MIC [1]: > 32 µg/mL | MIC [2]: > 32 µg/mL

COc1ccc(N(C(=O)Nc2ccc(F)cc2)C(C)c2nc3cc(Cl)ccc3c(=O)n2N2CCN(C(=O)[C@H](NC(=O)C(F)(F)F)[C@@H](C)O)CC2)c(OC)c1 (mixture of isomers) [Compound 262]
MIC [1]: > 32 µg/mL | MIC [2]: > 32 µg/mL

CCOC(=O)N[C@H](C(=O)N1CCN(n2c(C(C)N(C(=O)Nc3ccc(F)cc3)c3ccc(OC)cc3OC)nc3ccc(Cl)cc3c2=O)CC1)[C@@H](C)O (mixture of isomers) [Compound 263]
MIC [1]: > 32 µg/mL | MIC [2]: > 32 µg/mL

CCOC(=O)N[C@H](C(=O)N1CCN(n2c(C(C)N(C(=O)Nc3ccc(F)cc3)c3ccc(OC)cc3OC)nc3cc(Cl)ccc3c2=O)CC1)[C@@H](C)O (mixture of isomers) [Compound 264]
MIC [1]: > 32 µg/mL | MIC [2]: > 32 µg/mL

COC(=O)N[C@H](C(=O)N1CCN(n2c(C(C)N(C(=O)Nc3ccc(F)cc3)c3ccc(OC)cc3OC)nc3ccc(Cl)cc3c2=O)CC1)[C@@H](C)O (mixture of isomers) [Compound 265]
MIC [1]: > 32 µg/mL | MIC [2]: > 32 µg/mL

COC(=O)N[C@H](C(=O)N1CCN(n2c(C(C)N(C(=O)Nc3ccc(F)cc3)c3ccc(OC)cc3OC)nc3cc(Cl)ccc3c2=O)CC1)[C@@H](C)O (mixture of isomers) [Compound 266]
MIC [1]: > 32 µg/mL | MIC [2]: > 32 µg/mL

COC(=O)N[C@H](C(=O)N1CCN(n2c(C(C)N(C(=O)Nc3ccc(F)cc3)c3ccc(OC)cc3OC)nc3cc(F)ccc3c2=O)CC1)[C@H](C)O (mixture of isomers) [Compound 267]
MIC [1]: > 32 µg/mL | MIC [2]: > 32 µg/mL

COc1ccc(N(C(=O)Nc2ccc(F)cc2)C(C)c2nc3ccc(Cl)cc3c(=O)n2N2CCN(C(=O)[C@@H](NC(=O)OC(C)(C)C)[C@H](C)O)CC2)c(OC)c1 (mixture of isomers) [Compound 269]
MIC [1]: > 32 µg/mL | MIC [2]: > 32 µg/mL

COc1ccc(N(C(=O)Nc2ccc(F)cc2)C(C)c2nc3cc(Cl)ccc3c(=O)n2N2CCN(C(=O)[C@@H](NC(=O)OC(C)(C)C)[C@H](C)O)CC2)c(OC)c1 (mixture of isomers) [Compound 270]
MIC [1]: > 32 µg/mL | MIC [2]: > 32 µg/mL

COc1ccc(N(C(=O)Nc2ccc(F)cc2)C(C)c2nc3cc(Cl)ccc3c(=O)n2N2CCN(C(=O)C(C)(C)NC(=O)OC(C)(C)C)CC2)c(OC)c1 (racemic) [Compound 340]
MIC [2]: > 32 µg/mL

COc1ccc(N(C(=O)Nc2ccc(F)cc2)C(C)c2nc3ccccc3c(=O)n2N2CCN(C(=O)C(C)(C)NC(=O)OC(C)(C)C)CC2)c(OC)c1 (racemic) [Compound 341]
MIC [2]: > 32 µg/mL

COC(=O)NC1CCN(C(=O)N2CCN(n3c(C(C)N(C(=O)Nc4ccc(F)cc4)c4cccc(-n5nccn5)c4)nc4ccccc4c3=O)CC2)C1 (racemic) [Compound 342]
MIC [2]: > 32 µg/mL

COC(=O)NC1CCN(C(=O)N2CCN(n3c(C(C)N(C(=O)Nc4ccc(F)cc4)c4ccc(OCC5CC5)cc4OCC4CC4)nc4ccccc4c3=O)CC2)C1 (racemic) [Compound 343]
MIC [2]: > 32 µg/mL

COC(=O)N[C@@H](C)C(=O)N1CCN(n2c(C(C)N(C(=O)Nc3ccc(F)cc3)c3cccc(-n4nccn4)c3)nc3ccccc3c2=O)CC1 (mixture of isomers) [Compound 349]
MIC [2]: > 32 µg/mL

CC(c1nc2ccccc2c(=O)n1N1CCN(C(=O)C2CC2)CC1)N(C(=O)Nc1ccc(F)cc1)c1ccccc1OCC1CC1 (racemic) [Compound 352]
MIC [2]: > 32 µg/mL

COc1ccc(N(C(=O)Nc2ccc(C#N)cc2)C(C)c2nc3cc(F)ccc3c(=O)n2N2CCN(C)CC2)c(OC)c1 (stereo not shown) [Compound 217]
MIC [2]: > 32 µg/mL

COc1ccc(N(C(=O)Nc2ccc(OC(F)F)cc2)C(C)c2nc3cc(F)ccc3c(=O)n2N2CCN(C)CC2)c(OC)c1 (stereo not shown) [Compound 218]
MIC [2]: > 32 µg/mL

COc1ccc(N(C(=O)Nc2ccc3c(c2)OCO3)C(C)c2nc3cc(F)ccc3c(=O)n2N2CCN(C)CC2)c(OC)c1 (stereo not shown) [Compound 219]
MIC [2]: > 32 µg/mL

COc1ccc(N(C(=O)Nc2cccc(F)c2)C(C)c2nc3cc(F)c(F)cc3c(=O)n2N2CCN(C)CC2)c(OC)c1 (stereo not shown) [Compound 221]
MIC [2]: > 32 µg/mL

COc1ccc(N(C(=O)Nc2ccc(C#N)cc2)C(C)c2nc3cc(F)c(F)cc3c(=O)n2N2CCN(C)CC2)c(OC)c1 (stereo not shown) [Compound 226]
MIC [2]: > 32 µg/mL

COc1ccc(N(C(=O)Nc2ccc(F)cc2)C(C)c2nc3ccccc3c(=O)n2N2CCN(C=O)CC2)c(OC)c1 (stereo not shown) [Compound 230]
MIC [2]: > 32 µg/mL

COC(=O)N1CCC[C@H]1C(=O)N1CCN(n2c(C(C)N(C(=O)Nc3ccc(F)cc3)c3ccc(OC)cc3OC)nc3ccccc3c2=O)CC1 (stereo partly shown) [Compound 244]
MIC [2]: > 32 µg/mL

COc1ccc(N(C(=O)Nc2ccc(F)cc2)C(C)c2nc3ccccc3c(=O)n2N2CCN(C(=O)c3cc(C)on3)CC2)c(OC)c1 (stereo not shown) [Compound 252]
MIC [2]: > 32 µg/mL

COc1ccc(N(C(=O)Nc2ccc(F)cc2)C(C)c2nc3ccccc3c(=O)n2N2CCN(C(=O)c3ccno3)CC2)c(OC)c1 (stereo not shown) [Compound 257]
MIC [2]: > 32 µg/mL

CC[C@H](N)C(=O)N1CCN(n2c(C(C)N(C(=O)Nc3ccc(F)cc3)c3ccc(OC)cc3OC)nc3cc(F)c(F)cc3c2=O)CC1 (stereo partly shown) [Compound 280]
MIC [2]: > 32 µg/mL

COc1ccc(N(C(=O)Nc2ccc(F)cc2)C(C)c2nc3cc(F)c(F)cc3c(=O)n2N2CCN(C(=O)[C@H](C)N)CC2)c(OC)c1 (stereo partly shown) [Compound 302]
MIC [2]: > 32 µg/mL

COc1ccc(N(C(=O)Nc2ccc(F)cc2)C(C)c2nc3cc(F)ccc3c(=O)n2N2CCN(C(=O)[C@H](C)N)CC2)c(OC)c1 (stereo partly shown) [Compound 305]
MIC [2]: > 32 µg/mL

COc1cc(F)ccc1N(C(=O)Nc1ccc(F)cc1)C(C)c1nc2ccccc2c(=O)n1N1CCN(C(=O)C2CC2)CC1 (stereo not shown) [Compound 350]
MIC [2]: > 32 µg/mL

CCOc1ccccc1N(C(=O)Nc1ccc(F)cc1)C(C)c1nc2ccccc2c(=O)n1N1CCN(C(=O)C2CC2)CC1 (stereo not shown) [Compound 353]
MIC [2]: > 32 µg/mL

COc1ccc(N(C(=O)Nc2ccc(F)cc2)[C@@H](C)c2nc3ccccc3c(=O)n2N2CCN(c3nncs3)CC2)c(OC)c1 [Compound 355]
MIC [2]: > 32 µg/mL

COC(=O)N1CCC[C@H]1C(=O)N1CCN(n2c([C@H](C)N(C(=O)Nc3ccc(F)cc3)c3ccc(OC)cc3OC)nc3ccccc3c2=O)CC1 [Compound 356]
MIC [2]: > 32 µg/mL

COc1ccc(N(C(=O)Nc2ccc(F)cc2)[C@@H](C)c2nc3cc(Cl)ccc3c(=O)n2N2CCN(C(=O)[C@@H]3CCCN3)CC2)c(OC)c1 [Compound 357]
MIC [2]: > 32 µg/mL

COC(=O)N[C@H](C(=O)N1CCN(n2c([C@H](C)N(C(=O)Nc3ccc(F)cc3)c3ccc(OC)cc3OC)nc3ccc(Cl)cc3c2=O)CC1)[C@@H](C)O [Compound 358]
MIC [2]: > 32 µg/mL

COC(=O)N[C@H](C(=O)N1CCN(n2c([C@H](C)N(C(=O)Nc3ccc(F)cc3)c3ccc(OC)cc3OC)nc3cc(Cl)ccc3c2=O)CC1)[C@@H](C)O [Compound 359]
MIC [2]: > 32 µg/mL

COc1ccc(N(C(=O)Nc2ccc(F)cc2)[C@@H](C)c2nc3ccccc3c(=O)n2N2CCN(C(=O)[C@@H](NC(=O)OC(C)(C)C)[C@H](C)O)CC2)c(OC)c1 [Compound 360]
MIC [2]: > 32 µg/mL

CC[C@H](NC(=O)OC)C(=O)N1CCN(n2c([C@H](C)N(C(=O)Nc3ccc(F)cc3)c3ccc(OC)cc3OC)nc3ccccc3c2=O)CC1 [Compound 361]
MIC [2]: > 32 µg/mL

COc1ccc(N(C(=O)Nc2ccc(F)cc2)[C@@H](C)c2nc3cc(Cl)ccc3c(=O)n2N2CCN(C(=O)[C@H](C)N)CC2)c(OC)c1 [Compound 362]
MIC [2]: > 32 µg/mL

COC(=O)N[C@@H](C)C(=O)N1CCN(n2c([C@H](C)N(C(=O)Nc3ccc(F)cc3)c3ccc(OC)cc3OC)nc3cc(F)c(F)cc3c2=O)CC1 [Compound 363]
MIC [2]: > 32 µg/mL

COC(=O)N[C@@H](C)C(=O)N1CCN(n2c([C@H](C)N(C(=O)Nc3ccc(F)cc3)c3ccc(OC)cc3OC)nc3ccc(Cl)cc3c2=O)CC1 [Compound 364]
MIC [2]: > 32 µg/mL

COC(=O)N[C@@H](C)C(=O)N1CCN(n2c([C@H](C)N(C(=O)Nc3ccc(F)cc3)c3ccc(OC)cc3OC)nc3ccc(F)cc3c2=O)CC1 [Compound 365]
MIC [2]: > 32 µg/mL

COC(=O)N[C@@H](C)C(=O)N1CCN(n2c([C@H](C)N(C(=O)Nc3ccc(F)cc3)c3ccc(OC)cc3OC)nc3cc(Cl)ccc3c2=O)CC1 [Compound 366]
MIC [2]: > 32 µg/mL

COC(=O)N[C@@H](C)C(=O)N1CCN(n2c([C@H](C)N(C(=O)Nc3ccc(F)cc3)c3ccc(OC)cc3OC)nc3cc(F)ccc3c2=O)CC1 [Compound 367]
MIC [2]: > 32 µg/mL

COc1ccc(N(C(=O)Nc2ccc(F)cc2)[C@@H](C)c2nc3ccc(Cl)cc3c(=O)n2N2CCN(C(=O)C(C)(C)N)CC2)c(OC)c1 [Compound 369]
MIC [2]: > 32 µg/mL

COC(=O)NC(C)(C)C(=O)N1CCN(n2c([C@H](C)N(C(=O)Nc3ccc(F)cc3)c3ccc(OC)cc3OC)nc3ccc(F)cc3c2=O)CC1 [Compound 370]
MIC [2]: > 32 µg/mL

COC(=O)NC(C)(C)C(=O)N1CCN(n2c([C@H](C)N(C(=O)Nc3ccc(F)cc3)c3ccc(OC)cc3OC)nc3cc(Cl)ccc3c2=O)CC1 [Compound 371]
MIC [2]: > 32 µg/mL

COC(=O)NC(C)(C)C(=O)N1CCN(n2c([C@H](C)N(C(=O)Nc3ccc(F)cc3)c3ccc(OC)cc3OC)nc3cc(F)ccc3c2=O)CC1 [Compound 372]
MIC [2]: > 32 µg/mL

COC(=O)NC(C)(C)C(=O)N1CCN(n2c([C@H](C)N(C(=O)Nc3ccc(F)cc3)c3ccc(OC)cc3OC)nc3ccccc3c2=O)CC1 [Compound 373]
MIC [2]: > 32 µg/mL

From patent US6689782B2, “Fungal efflux pump inhibitors” (priority 2001, dated 2004)
